PubChem BioAssay AID504761, Drosophila RNAi Screening Center, 2011

Screen: 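Insect host genes that dengue virus relies on to spread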 (primary screen)
System: D.Mel-2 cells from Drosophila
Reagents: long dsRNA against Drosophila genes
Treatment: infection with dengue virus type 2; dose and infection time not stated
Detection: 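Per well on two replicate plates, imaging gave the percent of cells positive for viral envelope protein, ranked by infection, and a nuclear count of cells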
Scale: infection score: higher = more virus-infected cells; cell count: higher = more cells in the well
Active means: 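Low infection ranks in the two replicates (chance level up to 0.065) followed by a retest with a 1.5-fold or larger significant decrease, p below 0.05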
Calls: active = confirmed: knock-down lowers infection; inactive = not picked or not confirmed
The deposit covers about 22,000 reagents; this is an unselected part of those that have a named target and a result. In the full data, 116 (0.52%) got an active call. 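Calls depend on retest data that are not deposited; infection was ranked per plate without normalising between plates; the unit of the infection score is not given.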 Raw values vary from plate to plate and are shown uncorrected. A number with no mark means an inactive call. Further read-outs or replicates are left out here. Not given: the amount of reagent, the time to read-out.

{"target gene": "Fdx2", "amplicon": "DRSC08306", "infection score, replicate 1": 4.95, "cell count, replicate 1": 6101}
{"target gene": "CG14491", "amplicon": "DRSC06462", "infection score, replicate 1": 13, "cell count, replicate 1": 6808}
{"target gene": "CG14491", "amplicon": "DRSC29448", "infection score, replicate 1": 18.4, "cell count, replicate 1": 6254}
{"target gene": "mRpL15", "amplicon": "DRSC11771", "infection score, replicate 1": 9.41, "cell count, replicate 1": 1222}
{"target gene": "mRpL15", "amplicon": "DRSC24402", "infection score, replicate 1": 6.21, "cell count, replicate 1": 4717}
{"target gene": "CG3735", "amplicon": "DRSC04411", "infection score, replicate 1": 8.13, "cell count, replicate 1": 5902}
{"target gene": "KLHL18", "amplicon": "DRSC15496", "infection score, replicate 1": 8.54, "cell count, replicate 1": 6320}
{"target gene": "KLHL18", "amplicon": "DRSC26629", "infection score, replicate 1": 1.69, "cell count, replicate 1": 6608}
{"target gene": "Hsp110", "amplicon": "DRSC11186", "cell count, replicate 1": 213}
{"target gene": "Hsp110", "amplicon": "DRSC26538", "infection score, replicate 1": 0.77, "cell count, replicate 1": 6332}
{"target gene": "Moe", "amplicon": "DRSC18684", "infection score, replicate 1": 2.53, "cell count, replicate 1": 6490}
{"target gene": "Flo2", "amplicon": "DRSC19062", "infection score, replicate 1": 0.45, "cell count, replicate 1": 6449}
{"target gene": "Flo2", "amplicon": "DRSC20244", "infection score, replicate 1": 5.94, "cell count, replicate 1": 6588}
{"target gene": "c(3)G", "amplicon": "DRSC15245", "infection score, replicate 1": 17.7, "cell count, replicate 1": 7000}
{"target gene": "c(3)G", "amplicon": "DRSC26062", "infection score, replicate 1": 12.6, "cell count, replicate 1": 5794}
{"target gene": "hbt", "amplicon": "DRSC23270", "infection score, replicate 1": 2.29, "cell count, replicate 1": 6189}
{"target gene": "CG9164", "amplicon": "DRSC19087", "infection score, replicate 1": 1.87, "cell count, replicate 1": 6112}
{"target gene": "CG9164", "amplicon": "DRSC20162", "infection score, replicate 1": 3.4, "cell count, replicate 1": 6319}
{"target gene": "CG9164", "amplicon": "DRSC23596", "infection score, replicate 1": 15.4, "cell count, replicate 1": 6212}
{"target gene": "CG15365", "amplicon": "DRSC23021", "infection score, replicate 1": 1.93, "cell count, replicate 1": 6386}
{"target gene": "CG33493", "amplicon": "DRSC10642", "infection score, replicate 1": 2.98, "cell count, replicate 1": 6277}
{"target gene": "CG33493", "amplicon": "DRSC25546", "infection score, replicate 1": 1.51, "cell count, replicate 1": 6505}

3 neighbouring records already listed, quoted:
{"target gene": "Flo2", "amplicon": "DRSC19062", "infection score, replicate 1": 0.45, "cell count, replicate 1": 6449}
{"target gene": "Flo2", "amplicon": "DRSC20244", "infection score, replicate 1": 5.94, "cell count, replicate 1": 6588}
{"target gene": "c(3)G", "amplicon": "DRSC15245", "infection score, replicate 1": 17.7, "cell count, replicate 1": 7000}
